US20250170127A1, “RE-SENSITIZING MULTIDRUG-RESISTANT (MDR) GRAM-NEGATIVE BACTERIA TO COLISTIN USING IONOPHORES” (The Regents of the University of Colorado, a body corporate, priority 2022, published 2025)

Test system: HeLa cells
Format: cell-based, human
Conditions: GI50 in HeLa / MRC in AR-0493
Protocol: These 10 compounds were tested for their MICs and minimum re-sensitizing concentrations (MRCs) in the presence colistin at 2 μg/mL in E. coli AR-0493. […] To evaluate their toxicity in mammalian cells, the present inventors treated human epithelial adenocarcinoma HeLa cells with each compound at a wide range of concentrations.
To evaluate the mammalian toxicity of these analogs, Applicants tested them in cell viability assay using human cervical adenocarcinoma HeLa cells. Their respective half maximal growth inhibition concentration (GI50) was calculated using KaleidaGraph. The selectivity index (SI) for each compound was also calculated as the ratio of their GI50 and MRC. […] Therefore, Applicants selected two bisanilino analogs, 7l and 7m, that bear chlorines at the meta- and para-positions, respectively, of the phenyl groups for further characterization studies. […]. […] Their mammalian toxicities were also evaluated, and SIs calculated. […] Applicants we next explored the scope of analogs 71 and 7m their colistin-potentiating activity in 8 different MDR Gram negative bacteria with diverse genetic backgrounds and resistance mechanisms (Table 7). All strains were obtained from CDC and FDA Antibiotic Resistance Bank. For example, E. coli AR-0493 and K. pneumoniae AR-0497 carry the plasmid that contains the most prevalent mcr-1 gene. E. coli AR-0538, Salmonella Typhimurium AR-0539 and AR-0635 contain the mcr-2, 3, and 4 genes, respectively. These genes encode the phosphoethanolamine transferase, which was originated form the chromosome of A. baumannii, such as AR-0310. […]. A. baumannii AR-0310 appears more sensitive to these two compounds and the MICs of colistin was reduced to 0.25 μg/mL.
General Methods. MDR strains E. coli AR-0493, AR-0346, and AR-0538, Salmonella Enteritidis AR-0496, Salmonella Typhimurium AR-0635, K. pneumoniae AR-0497, A. baumannii AR-0300 and AR-0310 were all obtained from the CDC & FDA Antibiotic Resistance Isolate Bank. E. coli K-12 was a gift from the Copley lab (Department of MCD Biology, University of Colorado Boulder). HeLa cells were purchased from the ATCC. All bacterial strains were grown on trypticase soy agar supplemented with 5% sheep blood (BAP). Bacteria were then cultured in Luria-Bertani (LB) medium at 35° C. until they achieve the log phase before screening or antimicrobial testing using CAMHB media. MIC, MRC, and checkerboard analyses and mammalian growth inhibition analyses in Hela cells were performed as described previously. More details are given in Supporting information.

Question: How did the “SI (Selective Index), ratio of GI50 and MRC” value (from here on “SI (Selective Index), ratio”) turn out when `c1ccc(Nc2nc3nonc3nc2Nc2ccccc2)cc1` [Compound 7a] was run?
Answer: 8.8

Question: Which “SI (Selective Index), ratio” value does the source give for `Cc1cccc(Nc2nc3nonc3nc2Nc2cccc(C)c2)c1` [Compound 7c] here?
Answer: 30

Question: Which “SI (Selective Index), ratio” value does the source give for `Cc1ccc(Nc2nc3nonc3nc2Nc2ccc(C)cc2)cc1` [Compound 7d] here?
Answer: 22

Question: Which “SI (Selective Index), ratio” value does the source give for `Fc1cccc(Nc2nc3nonc3nc2Nc2cccc(F)c2)c1` [Compound 7i] here?
Answer: 40

Question: How did the “SI (Selective Index), ratio” value turn out when `Fc1ccc(Nc2nc3nonc3nc2Nc2ccc(F)cc2)cc1` [Compound 7j] was run?
Answer: 19

Question: Which “SI (Selective Index), ratio” value does the source give for `FC(F)(F)Oc1cccc(Nc2nc3nonc3nc2Nc2cccc(OC(F)(F)F)c2)c1` [Compound 7o] here?
Answer: 17

Question: Which “SI (Selective Index), ratio” value does the source give for `FC(F)(F)Oc1ccc(Nc2nc3nonc3nc2Nc2ccc(OC(F)(F)F)cc2)cc1` [Compound 7p] here?
Answer: 23

Question: How did the “SI (Selective Index), ratio” value turn out when `Cc1cccc(Nc2nc3nonc3nc2Nc2cccc(OC(F)(F)F)c2)c1` [Compound 7r] was run?
Answer: 24

Question: `COc1ccccc1Nc1nc2nonc2nc1O` [Compound 8e] was tested. Which “SI (Selective Index), ratio” value did it give?
Answer: >24

Question: How did the “SI (Selective Index), ratio” value turn out when `Cc1cccc(Nc2nc3nonc3nc2Cl)c1` [ST024336, reference compound] was run?
Answer: 5
